A mixed list of measured activities; the numbers were collected in NIAID ChemDB.

All rows: target-level tests; agent: HIV-1; protein: Reverse transcriptase

Inhibition is in % at the dose shown (toxicity tests: loss of growth or viability).

smiles	strain or isolate	mutations	method	read-out	dose	result
CCN1c2ncc(CCOc3ccc(-c4cc[n+]([O-])c(C)c4)cc3C)cc2C(=O)N(C)c2cccnc21	IIIB	RT-K103N Y181C	nucleotide incorporation / radiometric	IC50	-	<0.05 µM
CCN1C(=O)c2cc(Cl)nnc2N(CC)c2ccc(C)cc21	-	-	-	inhibition	33 µM	15%
Cc1ccc(-n2c(SCC(=O)Nc3ccc(S(=O)(=O)NCCN4CCOCC4)cc3Cl)nnc2C(F)F)c2c1CCCC2	-	RT-Y181C	nucleotide incorporation / radiometric	fold resistance	-	>1
CCN1c2ncc(CCOc3ccc(-c4ccc[n+]([O-])c4)cc3C)cc2C(=O)N(C)c2cccnc21	IIIB	-	nucleotide incorporation / radiometric	IC50	-	<0.05 µM
CCN1c2ncc(CCOc3ccc(C(=O)O)c4c3CCN(C(C)=O)C4)cc2C(=O)N(C)c2cccnc21	-	RT-Y188L	nucleotide incorporation / radiometric	IC50	-	>1 µM
Cc1cc(C2CC2)cc(Cl)c1-n1c(Br)nnc1SCC(=O)Nc1ccc(S(N)(=O)=O)cc1Cl	-	RT-Y188L	nucleotide incorporation / radiometric	fold resistance	-	>2
CCN1c2ncc(CCOc3ccc(-c4ccc(C(=O)O)cc4)cc3)cc2C(=O)N(C)c2ccc(Cl)nc21	IIIB	RT-K103N Y181C	nucleotide incorporation / radiometric	fold resistance	-	1
Cc1ccc2c(c1)N(C)C(=O)c1ccnnc1N2C1CC1	-	-	-	inhibition	33 µM	27%
CCOC(=O)CN(C)C(=O)c1ccc(NC(=O)CSc2nnc(Br)n2-c2ccc(C3CC3)c3ccccc23)c(Cl)c1	-	RT-Y188L	nucleotide incorporation / radiometric	fold resistance	-	>1
CCCN1c2ccc(C)cc2N(CC)C(=O)c2cc(Cl)nnc21	-	-	-	inhibition	33 µM	13%
CCN1c2ncc(CCOc3ccc(CC(=O)O)c4ccccc34)cc2C(=O)Nc2c(C)cc(F)nc21	-	RT-V106A	nucleotide incorporation / radiometric	fold resistance	-	1–10
CCc1ccc(-n2c(Br)nnc2SCC(=O)Nc2ccc(C(=O)NCCN3CCCC3)cc2Cl)c2ccccc12	-	RT-Y188L	nucleotide incorporation / radiometric	fold resistance	-	>2
CCN1c2ncc(CCOc3ccc(-c4ccc(CCC(=O)O)cc4)cc3C)cc2C(=O)N(C)c2cccnc21	IIIB	RT-K103N Y181C	nucleotide incorporation / radiometric	IC50	-	<0.05 µM
CCN1c2ncc(CCOc3ccc(C(=O)O)c4c3CCN(C(=O)N(C)C)C4)cc2C(=O)N(C)c2cccnc21	WT	-	nucleotide incorporation / radiometric	IC50	-	<0.1 µM
CCN1c2ncc(CCOc3ccc(C(=O)Nc4ccc(CC(=O)O)cc4)cc3C)cc2C(=O)Nc2c(C)ccnc21	IIIB	RT-K103N Y181C	nucleotide incorporation / radiometric	fold resistance	-	1
O=C(CSc1nnc(Br)n1-c1ccc(C2CC2)cc1Cl)Nc1ccc(S(=O)(=O)O)cc1Cl	-	RT-Y188L	nucleotide incorporation / radiometric	fold resistance	-	>2
CCOC(=O)c1csc(-c2ccc(OCCc3cnc4c(c3)C(=O)N(C)c3cccnc3N4CC)c(C)c2)n1	IIIB	RT-K103N Y181C	nucleotide incorporation / radiometric	fold resistance	-	>2
CCOC(=O)CCNC(=O)c1ccc(NC(=O)CSc2nnc(Br)n2-c2ccc(CC)c3ccccc23)c(Cl)c1	-	RT-Y188L	nucleotide incorporation / radiometric	fold resistance	-	>1
CCCN1C(=O)c2ccnnc2N(CC)c2ccccc21	-	-	-	inhibition	33 µM	31%
Cc1ccc2c(C)cc(C)c(-n3c(SCC(=O)Nc4ccc(S(N)(=O)=O)cc4Cl)nnc3C(F)F)c2n1	-	RT-Y181C	nucleotide incorporation / radiometric	fold resistance	-	>1
CCCN1C(=O)c2ccnnc2N(CCC)c2ccc(C)cc21	-	-	-	inhibition	33 µM	1%
CCN1c2ncc(CCOc3ccc(-c4ccc(CC(=O)O)cc4)cc3C)cc2C(=O)N(C)c2cccnc21	IIIB	RT-K103N Y181C	nucleotide incorporation / radiometric	IC50	-	<0.05 µM
CCN1c2ncc(CCOc3ccc4cc(CC(=O)O)ccc4c3)cc2C(=O)N(C)c2cccnc21	WT	-	nucleotide incorporation / radiometric	IC50	-	<0.1 µM
CCc1cc(C2CC2)ccc1-n1c(Br)nnc1SCC(=O)Nc1ccc(C(=O)O)cc1Cl	-	RT-Y188L	nucleotide incorporation / radiometric	fold resistance	-	>2

The last 3 rows once more:

smiles	strain or isolate	mutations	method	read-out	dose	result
CCN1c2ncc(CCOc3ccc(-c4ccc(CC(=O)O)cc4)cc3C)cc2C(=O)N(C)c2cccnc21	IIIB	RT-K103N Y181C	nucleotide incorporation / radiometric	IC50	-	<0.05 µM
CCN1c2ncc(CCOc3ccc4cc(CC(=O)O)ccc4c3)cc2C(=O)N(C)c2cccnc21	WT	-	nucleotide incorporation / radiometric	IC50	-	<0.1 µM
CCc1cc(C2CC2)ccc1-n1c(Br)nnc1SCC(=O)Nc1ccc(C(=O)O)cc1Cl	-	RT-Y188L	nucleotide incorporation / radiometric	fold resistance	-	>2

ICn is the concentration giving n% inhibition. Rows are shuffled and stem from different studies. An empty or dashed field is not shown. Fold resistance: result on the changed form divided by that on wild type. a–b is a range or a potency band.